Compound potency records, mixed from different reports. Data source: NIAID ChemDB in PubChem.

Shared fields: enzyme or target tests

ICn: concentration for n% inhibition. Inhibition is in % at the dose shown (toxicity tests: loss of growth or viability). Blank or dashed fields: not listed here. Conditions beyond the fields shown may differ between rows.

SMILES | endpoint | protein | read by | dose | strain or isolate | species | value
CO/N=C1\CN(c2nc3c(cc2F)c(=O)c(C(=O)O)cn3C2CC2)CC1CN | IC50 | DNA gyrase | gel |  | H37Rv | Mycobacterium tuberculosis | 11 µg/mL
COc1nc(C)nc(NC(=O)NS(=O)(=O)c2ccccc2OCCCl)n1 | Ki | Acetohydroxyacid synthase |  |  |  | Mycobacterium avium | 39.6 µM
COC(=O)c1ccccc1S(=O)(=O)NC(=O)Nc1nc(C)cc(OC)n1 | Ki | Acetohydroxyacid synthase |  |  |  | Mycobacterium tuberculosis | 66.7 µM
CCc1cn([C@H]2C[C@H](O)[C@@H](CO)O2)c(=O)[nH]c1=O | IC50 | Thymidine monophosphate kinase |  |  |  | Mycobacterium tuberculosis | 1140 µM
O=C(CCN1C(=O)/C(=C/c2ccc(Cl)cc2)SC1=S)NNC(=O)c1cccnc1 | IC50 | Pantothenate synthetase | absorbance |  |  | Mycobacterium tuberculosis | 1.35 µM
O=c1[nH]c(=O)n([C@H]2C[C@H](O)[C@@H](CO)O2)cc1Cl | IC50 | Thymidine monophosphate kinase |  |  |  | Mycobacterium tuberculosis | 10 µM
COC(=O)c1sc(-c2ccccn2)nc1OCc1cnnn1-c1cc2ccc(N)cc2oc1=O | IC50 | DNA gyrase | gel / absorbance |  |  | Mycobacterium tuberculosis | 0.5 µM
O=C1N=C2SC([N+](=O)[O-])=CN2C2=NC(=S)NC(c3ccccc3C(F)(F)F)C12 | inhibition | CysK1 | absorbance | 100 µM |  | Mycobacterium tuberculosis | 10.6%
COC(=O)c1sc(-c2ccccc2)nc1OCc1cnnn1-c1cc2ccc(O)cc2oc1=O | IC50 | DNA gyrase | gel / absorbance |  |  | Mycobacterium tuberculosis | 14.9 µM
C/C(=C\CCC1=CC(=O)c2ccccc2C1=O)CCC[C@@H](C)CCC[C@@H](C)CCCC(C)C | inhibition | NADH dehydrogenase |  | 40 µM |  | Mycobacterium tuberculosis | 81%
O=c1[nH]c(=O)n([C@H]2C[C@H](O)[C@@H](CO)O2)cc1C(F)(F)F | IC50 | Thymidine monophosphate kinase |  |  |  | Mycobacterium tuberculosis | 97 µM
COC1=C(OC)C(=O)C(CCC=C(C)C)=CC1=O | inhibition | NADH dehydrogenase |  | 40 µM |  | Mycobacterium tuberculosis | 44%
Cc1cn([C@@H]2O[C@H](COP(=O)([O-])[O-])[C@@H](O)[C@H]2F)c(=O)[nH]c1=O | Ki | Thymidine monophosphate kinase |  |  |  | Mycobacterium tuberculosis | 28.05 µM
COC1=C(OC)C(=O)C(CC/C=C(\C)CCC=C(C)C)=CC1=O | inhibition | NADH dehydrogenase |  | 40 µM |  | Mycobacterium tuberculosis | 85%
O=C(CCN1C(=O)/C(=C/c2ccc3c(c2)OCO3)SC1=S)NNC(=O)c1ccncc1 | IC50 | Pantothenate synthetase | absorbance |  |  | Mycobacterium tuberculosis | 1.21 µM
O=C(Nc1ccc(Br)cc1)C1CCC(S(=O)(=O)c2cccnc2)CC1 | inhibition | Lipoamide dehydrogenase | absorbance | 100 µM | H37Rv | Mycobacterium tuberculosis | 24%
O=C(O)Cc1ccc(O)cc1 | Ki | Rv3273 |  |  | Rv3273 | Mycobacterium tuberculosis | 11.4 µM
O=C(O)c1sc(-c2ccccc2)nc1OCc1cnnn1-c1cc2ccc(O)cc2oc1=O | IC50 | DNA gyrase | gel / absorbance |  |  | Mycobacterium tuberculosis | 17.4 µM
Cc1cn([C@@H]2O[C@H](COP(=O)([O-])[O-])[C@@H](N)[C@H]2O)c(=O)[nH]c1=O | Ki | Thymidine monophosphate kinase |  |  |  | Mycobacterium tuberculosis | 55.08 µM
O=c1ccn([C@H]2C[C@H](O)[C@@H](CO)O2)c(=O)[nH]1 | IC50 | Thymidine monophosphate kinase |  |  |  | Mycobacterium tuberculosis | 1020 µM
Cc1cc(NC(=O)CN(C)S(=O)(=O)c2cc(Br)cnc2N)ccc1Br | inhibition | Lipoamide dehydrogenase | absorbance | 100 µM | H37Rv | Mycobacterium tuberculosis | 100%
Cc1c(F)c(N2CCNC(C)C2)cc2c1c(=O)c(C(=O)O)cn2C1CC1 | IC50 | DNA gyrase | gel |  | H37Rv | Mycobacterium tuberculosis | 16 µg/mL
CCOc1ccc2cc(-n3nncc3COc3nc(-c4ccncc4)sc3C(=O)O)c(=O)oc2c1 | IC50 | DNA gyrase | gel / absorbance |  |  | Mycobacterium tuberculosis | 9.7 µM
O=c1[nH]c(=O)n([C@H]2C[C@H](O)[C@@H](CO)O2)cc1Br | Ki | Thymidine monophosphate kinase |  |  |  | Mycobacterium tuberculosis | 625 µM
COC(=O)c1ccccc1S(=O)(=O)NC(=O)Nc1nc(OCF)cc(OCF)n1 | Ki | Acetohydroxyacid synthase |  |  |  | Mycobacterium avium | 18.3 µM
O=C1N=C2SC([N+](=O)[O-])=CN2C2=NC(=S)NC(c3ccccc3[N+](=O)[O-])C12 | inhibition | CysK1 | absorbance | 100 µM |  | Mycobacterium tuberculosis | 88.7%
C[C@@H]1CN(c2c(F)c(N)c3c(=O)c(C(=O)O)cn(C4CC4)c3c2F)C[C@H](C)N1 | IC50 | Gyrase (V90A+V94D mutant) |  |  |  | Mycobacterium tuberculosis | >400 µg/mL
CCCC[C@H](CN(O)C=O)C(=O)N1CCCC1C(=O)Nc1cc(CC)ccn1 | IC50 | Peptide deformylase |  |  |  | Mycobacterium tuberculosis | 90 µM
CCOc1ccc2cc(-n3nncc3COc3nc(-c4ccccc4)sc3C(=O)OC)c(=O)oc2c1 | IC50 | DNA gyrase | gel / absorbance |  |  | Mycobacterium tuberculosis | 13.5 µM
COC(=O)c1ccccc1CS(=O)(=O)NC(=O)Nc1nc(OC)cc(OC)n1 | Ki | Acetohydroxyacid synthase |  |  |  | Mycobacterium avium | >800 µM
O=C1N=C2SC([N+](=O)[O-])=CN2C2=NC(=S)NC(c3ccccc3)C12 | inhibition | CysK1 | absorbance | 100 µM |  | Mycobacterium tuberculosis | 9.6%
Nc1ccc2cc(-n3nncc3COc3nc(-c4ccccc4)sc3C=O)c(=O)oc2c1 | IC50 | DNA gyrase | gel / absorbance |  |  | Mycobacterium tuberculosis | 0.62 µM
NC1CCN(c2c(F)cc3c(=O)c(C(=O)O)cn(C4CC4)c3c2Cl)C1 | IC50 | DNA gyrase | gel |  | H37Rv | Mycobacterium tuberculosis | 2.5 µg/mL
O=C(CCN1C(=O)/C(=C/c2ccc(Cl)cc2)SC1=S)NNC(=O)c1ccncc1 | IC50 | Pantothenate synthetase | absorbance |  |  | Mycobacterium tuberculosis | 3.5 µM
COC(=O)c1ccccc1S(=O)(=O)NC(=O)Nc1nc(C)cc(C)n1 | Ki | Acetohydroxyacid synthase |  |  |  | Mycobacterium tuberculosis | 11.6 µM
COc1cc(C2NC(=S)N=C3C2C(=O)N=C2SC([N+](=O)[O-])=CN23)ccc1O | inhibition | CysK1 | absorbance | 100 µM |  | Mycobacterium tuberculosis | 10.8%
CO[C@H]1O[C@@H](n2ccc(=O)[nH]c2=O)C[C@@H]1N=[N+]=[N-] | Ki | Thymidine monophosphate kinase |  |  |  | Mycobacterium tuberculosis | 811 µM
N[C@@H]1CN(c2c(F)cc3c(=O)c(C(=O)O)cn([C@@H]4C[C@@H]4F)c3c2Cl)CC12CC2 | IC50 | DNA gyrase | gel |  | H37Rv | Mycobacterium tuberculosis | 2.5 µg/mL
O=C(CCN1C(=O)/C(=C/c2ccc(OCc3ccccc3)cc2)SC1=S)NNC(=O)c1ccccc1 | IC50 | Pantothenate synthetase | absorbance |  |  | Mycobacterium tuberculosis | 0.79 µM
Cc1ccccc1C1NC(=O)N=C2C1C(=O)N=C1SC([N+](=O)[O-])=CN12 | inhibition | CysK1 | absorbance | 100 µM |  | Mycobacterium tuberculosis | 0%
CCn1cc(C(=O)O)c(=O)c2cc3c(cc21)OCO3 | IC50 | DNA gyrase | gel |  | H37Rv | Mycobacterium tuberculosis | 300 µg/mL
COc1ccc(C2NC(=O)N=C3C2C(=O)N=C2SC([N+](=O)[O-])=CN23)cc1 | inhibition | CysK1 | absorbance | 100 µM |  | Mycobacterium tuberculosis | 6.1%
NC(=O)C(=O)NCc1cccnc1 | inhibition | Lipoamide dehydrogenase | absorbance | 100 µM | H37Rv | Mycobacterium tuberculosis | 100%
Cc1cn([C@H]2C[C@H](CCO)[C@@H](CO)O2)c(=O)[nH]c1=O | Ki | Thymidine monophosphate kinase |  |  |  | Mycobacterium tuberculosis | 235.5 µM
CC(=O)N[C@H]1C(O)O[C@H](COC(C)=O)[C@@H](OC(C)=O)[C@H]1O[C@@H]1O[C@@H](C)[C@H](OCc2ccccc2)[C@@H](OCc2ccccc2)[C@H]1OCc1ccccc1 | IC50 | Galactosyltransferase |  |  |  | Mycobacterium tuberculosis | 240 µg/mL
[N-]=[N+]=N[C@H]1C[C@H](n2cc(Br)c(=O)[nH]c2=O)O[C@@H]1CO | Ki | Thymidine monophosphate kinase |  |  |  | Mycobacterium tuberculosis | 5 µM
CCN(Cc1ccccc1)C(=O)CN(C)S(=O)(=O)c1cc(Br)cnc1N | inhibition | Lipoamide dehydrogenase | absorbance | 100 µM | H37Rv | Mycobacterium tuberculosis | 100%

5 of the rows above, restated:

SMILES | endpoint | protein | read by | dose | strain or isolate | species | value
N[C@@H]1CN(c2c(F)cc3c(=O)c(C(=O)O)cn([C@@H]4C[C@@H]4F)c3c2Cl)CC12CC2 | IC50 | DNA gyrase | gel |  | H37Rv | Mycobacterium tuberculosis | 2.5 µg/mL
O=C(CCN1C(=O)/C(=C/c2ccc(OCc3ccccc3)cc2)SC1=S)NNC(=O)c1ccccc1 | IC50 | Pantothenate synthetase | absorbance |  |  | Mycobacterium tuberculosis | 0.79 µM
NC(=O)C(=O)NCc1cccnc1 | inhibition | Lipoamide dehydrogenase | absorbance | 100 µM | H37Rv | Mycobacterium tuberculosis | 100%
COC(=O)c1ccccc1S(=O)(=O)NC(=O)Nc1nc(C)cc(OC)n1 | Ki | Acetohydroxyacid synthase |  |  |  | Mycobacterium tuberculosis | 66.7 µM
Cc1c(F)c(N2CCNC(C)C2)cc2c1c(=O)c(C(=O)O)cn2C1CC1 | IC50 | DNA gyrase | gel |  | H37Rv | Mycobacterium tuberculosis | 16 µg/mL